Target: HLA-A*0301 (Homo sapiens, UniProt P04439)
Assay: Cell-based HLA class I-peptide concentration-based stability assay (TAP-deficient mono-allelic 721.221 cells)
Conditions: HLA A*03 mono-allelic TAP-deficient 721.221 cells, relative anti-HLA MFI

The chains behind the UniProt entries cited, without tags or fusion partners. Residues count along the entry.
UniProt P04439, 25-365 limits assumed: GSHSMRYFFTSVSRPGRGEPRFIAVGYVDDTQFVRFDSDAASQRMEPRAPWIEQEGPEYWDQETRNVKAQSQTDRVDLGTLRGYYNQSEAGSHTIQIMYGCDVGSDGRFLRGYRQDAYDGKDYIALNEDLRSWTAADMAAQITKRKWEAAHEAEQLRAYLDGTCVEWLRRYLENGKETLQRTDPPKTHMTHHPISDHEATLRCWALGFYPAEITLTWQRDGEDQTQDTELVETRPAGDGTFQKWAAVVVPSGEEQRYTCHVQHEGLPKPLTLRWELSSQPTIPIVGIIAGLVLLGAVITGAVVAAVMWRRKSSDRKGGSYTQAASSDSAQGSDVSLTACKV

Sequence: TVYYGVPVWK [TK10]
- Relative HLA MFI (10 uM) (peptide 10 uM): 0
- Relative HLA MFI (100 uM) (peptide 100 uM): 0.03264

Source: publication PMC8293625, “HLA class-I-peptide stability mediates CD8^+ T cell immunodominance hierarchies and facilitates HLA-associated immune control of HIV” (Cell Reports, 2021)
